Results from publication PMC10245118, “Structural basis of DNA binding by the WhiB-like transcription factor WhiB3 in Mycobacterium tuberculosis” (The Journal of Biological Chemistry, 2023).

What was measured:
[1] = target: T1, WhiB3TR, truncated Mtb WhiB3 (aa 1-90) without the C-terminal residues 91-102 (Mycobacterium tuberculosis H37Rv, UniProt P9WF41 1-90); test: crystal structure
T1 sequence: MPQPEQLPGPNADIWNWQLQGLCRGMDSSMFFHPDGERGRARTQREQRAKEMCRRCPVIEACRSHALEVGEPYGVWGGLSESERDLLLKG

[2] = target: T2, Mtb WhiB3 (Rv3416, 1-102 aa), tagless, wildtype (Mycobacterium tuberculosis H37Rv, UniProt P9WF41 1-102); test: crystal structure
T2 sequence: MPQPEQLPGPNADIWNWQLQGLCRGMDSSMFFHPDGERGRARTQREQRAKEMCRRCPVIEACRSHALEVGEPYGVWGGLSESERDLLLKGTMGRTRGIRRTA

B1: σ^A4, conserved region 4 of Mtb σ^A, as it stands in the σ^A4-βtip chimera (domain or fragment)
chain: VAVDAVSFTLLQDQLQSVLDTLSEREAGVVRLRFGLTDGQPRTLDEIGQVYGVTRERIRQIESKTMSKLRHPSRSQVLRDYLD
B1: binds [1]; binds [2].
